Mutational interference map of HIV-1 RNA dimerization

Reference: Ye et al. 2022, doi:10.1038/s41594-022-00746-2.

Sequence of the HIV-1 NL4-3 5' RNA, positions 1 to 437, as numbered in the source:
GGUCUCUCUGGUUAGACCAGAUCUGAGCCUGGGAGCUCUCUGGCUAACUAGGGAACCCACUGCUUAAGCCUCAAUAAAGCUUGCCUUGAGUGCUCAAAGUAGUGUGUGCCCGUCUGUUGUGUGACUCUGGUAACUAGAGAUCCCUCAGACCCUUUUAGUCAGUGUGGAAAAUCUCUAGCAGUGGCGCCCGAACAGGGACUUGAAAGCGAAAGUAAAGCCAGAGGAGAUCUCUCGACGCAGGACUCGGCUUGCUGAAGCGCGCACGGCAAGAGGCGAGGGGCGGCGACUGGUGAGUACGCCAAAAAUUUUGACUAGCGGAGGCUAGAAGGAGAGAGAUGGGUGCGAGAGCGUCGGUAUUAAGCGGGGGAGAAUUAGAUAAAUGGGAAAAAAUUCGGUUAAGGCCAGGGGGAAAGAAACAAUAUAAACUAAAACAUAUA

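Mutant RNA libraries with 1G, 2G or 3G starts, with or without cap, were folded at 37 °C for 30 min. Monomer and dimer bands were cut from native gels after folding in high salt (300 mM KCl, 5 mM MgCl2) or low salt (40 mM KCl, 0.1 mM MgCl2). Kdimer compares mutation frequencies in monomer and dimer, corrected for sequencing errors.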

Scale: median log2 Kdimer over the changes at a position; positive = changes inhibit dimerization, negative = changes enhance it. Sample: 2G capped high-salt. One numbering serves 1G, 2G and 3G. A position is written with its base.

* A21: 0.04
* U22: -0.03
* C23: 0.07
* U24: -0.13
* G25: -0.64
* A26: -0.05
* G27: -0.43
* C28: -0.53
* C29: -0.05
* U30: 0.02
* G31: 0.10
* G32: 0.11
* G33: -0.01
* A34: 0.04
* G35: -0.44
* C36: -0.33
* U37: -0.44
* C38: -0.18
* U39: 0.08
* C40: 0.14
* U41: -0.29
* G42: -0.37
* G43: -0.14
* C44: 0.03
* U45: -0.04
* A46: -0.09
* A47: 0.04
* C48: -0.33
* U49: 0.06
* A50: -0.07
* G51: 0.00
* G52: -0.02
* G53: 0.15
* A54: -0.54
* A55: 0.21
* C56: 0.25
* C57: -0.06
* C58: 0.19
* A59: 0.19
* C60: 0.50
* U61: 0.25
* G62: 0.30
* C63: 0.36
* U64: 0.24
* U65: 0.08
* A66: -0.16

The first 5 entries again:

* A21 = 0.04
* U22 = -0.03
* C23 = 0.07
* U24 = -0.13
* G25 = -0.64